Experimental data from paper PMC12583610, “Allosteric control of the bacterial ClpC/ClpP protease and its hijacking by antibacterial peptides” (The EMBO Journal, 2025).

The chains behind the UniProt entries cited, without tags or fusion partners. Where a name states a change or a piece, a line headed by the entry shows the natural chain unless it says otherwise.
UniProt Q2G0P5: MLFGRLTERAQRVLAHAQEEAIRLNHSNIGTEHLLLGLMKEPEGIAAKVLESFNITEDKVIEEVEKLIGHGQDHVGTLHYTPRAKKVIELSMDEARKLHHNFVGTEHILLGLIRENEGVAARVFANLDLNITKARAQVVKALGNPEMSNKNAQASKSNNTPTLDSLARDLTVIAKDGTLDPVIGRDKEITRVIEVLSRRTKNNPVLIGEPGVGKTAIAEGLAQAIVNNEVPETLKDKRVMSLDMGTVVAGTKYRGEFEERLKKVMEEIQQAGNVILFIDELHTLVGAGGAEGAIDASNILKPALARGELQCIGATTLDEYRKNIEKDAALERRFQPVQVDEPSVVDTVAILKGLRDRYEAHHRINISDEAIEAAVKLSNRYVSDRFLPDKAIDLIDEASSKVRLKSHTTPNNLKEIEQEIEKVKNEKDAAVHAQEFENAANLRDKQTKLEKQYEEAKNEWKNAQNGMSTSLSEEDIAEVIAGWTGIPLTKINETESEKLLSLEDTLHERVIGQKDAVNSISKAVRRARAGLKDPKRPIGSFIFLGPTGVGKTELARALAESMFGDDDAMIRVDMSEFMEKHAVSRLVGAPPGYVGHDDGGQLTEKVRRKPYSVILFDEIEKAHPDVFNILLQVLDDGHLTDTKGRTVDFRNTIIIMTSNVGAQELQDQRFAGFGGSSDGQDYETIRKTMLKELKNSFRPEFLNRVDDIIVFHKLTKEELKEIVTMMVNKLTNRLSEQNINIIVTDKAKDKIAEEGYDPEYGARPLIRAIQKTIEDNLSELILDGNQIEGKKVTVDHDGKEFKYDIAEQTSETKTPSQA

Target: ClpC/ClpP (S. aureus ClpC-WT with ClpP) (Staphylococcus aureus, UniProt Q2G0P5)
Experiment: FITC-casein degradation, fluorescence, titration
Conditions: read-out: half-maximal stimulation, allosteric activator, NTD pArg1/pArg2 sites, ATP regenerating system, pH 7.5, 10 mM MgCl2

N=C(NCCC[C@H](N)C(=O)O)NP(=O)(O)O
EC50: 220 µM
